Laboratory results published in US12139534B2, “Methods and compositions for decreasing soluble immune receptor CD28” (BIOND BIOLOGICS LTD., priority 2018, dated 2024).

Test system: human PBMCs

CNC(=O)[C@@H](NC(=O)[C@H](CCCc1ccccc1)[C@H](C)N(O)C=O)C(C)(C)C [GI254023X]
viability of the immune cells (MTT): no significant difference
